The values below come from patent US20240109955A1 (published 2024).

For experiment [1], the target named is SARS-CoV-2 spike protein, Omicron sublineage XBB (SARS-CoV-2, UniProt P0DTC2 14-1273). Kind of experiment: cell-based or functional assay.
Experiment [2] has as its target SARS-CoV-2 spike protein, Omicron sublineage XBB1.5 (SARS-CoV-2, UniProt P0DTC2 14-1273). The experiment in a line: cell-based or functional assay.

B1: E8 (antibody, V domains shown)
VH: QVTLRESGPALVKPTQTLTLTCTFSGFSLSTRGVCVSWIRQPPGKALEWLAFIDWDDDKYYNTSLKTRLTISKDTSKNQVVLTMTNVHPVDTATYYCARISSHHGSSWCTTFDYWGQGALVTVSA
VL: DTVMTQSPLSLPVTPGEPASISCRSSQSLLNSNGYNYLDWYVQKPGQSPQLLIYLGSNRASGVPDRFSGSGSGTDFTLKISRVEAEDVGVYYCMQPLQTPLFTFGPGTKVEIK
With B1, in experiment [1], the “IC50, pseudovirus neutralization” value stood at 61.5 nM and the “IC80, pseudovirus neutralization” value came to 705 nM. Further, in experiment [2], the “IC50, pseudovirus neutralization” value was 284 nM and the “IC80, pseudovirus neutralization” value was 319 nM.

B2: B8 (antibody, V domains shown)
VH: EVQLVESGGALIQPGGSLRLSCAASGIIVSANYMSWVRQAPGKGLEWVSVIYSGGSTFYADSVKGRFTISRDNSKNTLYLEMNSLRAEDTAVYYCARDAPILGVSDWGQGTLVTVSS
VL: EIVMTQSPAILSVSPGERATLSCRASQSVAINLAWYQQKPGQAPRLLIYAASSRATGIPGRFSGSGSETNFTLTISSLQSGDFAVYYCQQYITWPPSYTFGQGTKLEIK
As to B2, in experiment [1], the “IC50, pseudovirus neutralization” value was 13.4 nM and the “IC80, pseudovirus neutralization” value was 47.2 nM. Also, in experiment [2], the “IC50, pseudovirus neutralization” value was 43.5 nM and the “IC80, pseudovirus neutralization” value came out at 143 nM.

B3: A23-58H/A23-58L93VGLTG (antibody, V domains shown)
VH: QMQLVQSGPEVKKPGTSVKVSCKASGFTFTSSAVQWVRQRQRLEWIGWIVVGSGNTNYAQKFQERVTITRDMSTSTAYMELSSLRSEDTAVYYCAAPNCSNVVCYDGFDIWGQGTMVTVSS
VL: EIVLTQSPGTLSLSPGERATLSCRASQSVSSSYLAWYQQKPGQAPRLLIYSASSRATGIPDRFSGSGSGTDFTLTISRLEPEDFAVYFCQQYVGLTGWTFGQGTKVEIK
In the case of B3, in experiment [1], the “IC50, pseudovirus neutralization” value is > 10000 nM and the “IC80, pseudovirus neutralization” value is > 10000 nM. Also, in experiment [2], the “IC50, pseudovirus neutralization” value is > 10000 nM and the “IC80, pseudovirus neutralization” value is > 10000 nM.

B4: E12 (antibody, V domains shown)
VH: EVQLVESGGGLIQPGGSLRLSCAASGVIVSYNYMNWVRQAPGKGLEWVSVIYSGGSTFYADSVRGRFTISRDNSKNTLYLQMNSLRAEDTAVYYCARDLGPAGAFDIWGLGTMVTVSS
VL: EIVLTQSPGTLSLSPGETATLSCRASQSFSSDLAWYQQKPGQAPRLLIYGASSRATGIPDRFSGSGSGTDFTLTISRLEPADFAVYYCQQYGSSPPVTFGGGTKVEIK
As to B4, in experiment [1], the “IC50, pseudovirus neutralization” value was found to be 12.7 nM and the “IC80, pseudovirus neutralization” value is 31.1 nM. For the same molecule, in experiment [2], the “IC50, pseudovirus neutralization” value stood at 61.7 nM and the “IC80, pseudovirus neutralization” value turned out to be 183 nM.

B5: MX1089 (other)
chain 1: QTVVTQEPSFSVSPGGTVTLTCGLSSGSVSTAYFPSWYQQTPGQAPRTLIYGTNTRSSGVPDRFSGSILGNKAALTITGAQADDESDYYCVLYMGRGIVVFGGGTKLTVLGGSSGEIVMTQSPAILSVSPGERATLSCRASQSVAINLAWYQQKPGQAPRLLIYAASSRATGIPGRFSGSGSETNFTLTISSLQSGDFAVYYCQQYITWPPSYTFGQGTKLEIKGGGGSGGSGSGGGGSASGSGEVQLVESGGALIQPGGSLRLSCAASGIIVSANYMSWVRQAPGKGLEWVSVIYSGGSTFYADSVKGRFTISRDNSKNTLYLEMNSLRAEDTAVYYCARDAPILGVSDWGQGTLVTVSSGGSSGQVQLVESGGGVVQPGRSLRLSCAASGFTLSSYGMHWVRQAPGKGLEWVAVISYDGSNKYYVDSVKGRFTISRDNSKNTLYLQMNSLRAEDTAVYYCRWAYWELLPDYYYGMDVWGQGTTVTVSSASGGSGDKTHTCPPCPAPELLGGPSVFLFPPKPKDTLMISRTPEVTCVVVDVSHEDPEVKFNWYVDGVEVHNAKTKPREEQYNSYVVSVLTVLHQDWLNGKEYKCKVSNKALPAPIEKTISKAKGQPREPQVYTLPPCRDELTKNQVSLWCLVKGFYPSDIAVEWESNGQPENNYKTTPPVLDSDGSFFKKLTVDKSRWQQGNVFSCSVLHEALHSHYTQKSLSLSPG
chain 2: DTVMTQSPLSLPVTPGEPASISCRSSQSLLNSNGYNYLDWYVQKPGQSPQLLIYLGSNRASGVPDRFSGSGSGTDFTLKISRVEAEDVGVYYCMQPLQTPLFTFGPGTKVEIKGGSSGEIVLTQSPGTLSLSPGERATLSCRASQSVSSSYLAWYQQKPGQAPRLLIYSASSRATGIPDRFSGSGSGTDFTLTISRLEPEDFAVYFCQQYVGLTGWTFGQGTKVEIKGGGGSGGSGSGGGGSASGSGQMQLVQSGPEVKKPGTSVKVSCKASGFTFTSSAVQWVRQRQRLEWIGWIVVGSGNTNYAQKFQERVTITRDMSTSTAYMELSSLRSEDTAVYYCAAPNCSNVVCYDGFDIWGQGTMVTVSSGGSSGQVTLRESGPALVKPTQTLTLTCTFSGFSLSTRGVCVSWIRQPPGKALEWLAFIDWDDDKYYNTSLKTRLTISKDTSKNQVVLTMTNVHPVDTATYYCARISSHHGSSWCTTFDYWGQGALVTVSAASGGSGDKTHTCPPCPAPELLGGPSVFLFPPKPKDTLMISRTPEVTCVVVDVSHEDPEVKFNWYVDGVEVHNAKTKPREEQYNSYVVSVLTVLHQDWLNGKEYKCKVSNKALPAPIEKTISKAKGQPREPQVCTLPPSRDELTKNQVSLSCAVKGFYPSDIAVEWESNGQPENNYKTTPPVLDSDGSFFLVSKLTVDKSRWQQGNVFSCSVLHEALHSHYTQKSLSLSPG
B5: in experiment [1], the “IC50, pseudovirus neutralization” value is 10.7 nM and the “IC80, pseudovirus neutralization” value came to 28.5 nM. In experiment [2], the “IC50, pseudovirus neutralization” value was found to be 52.3 nM and the “IC80, pseudovirus neutralization” value was 148 nM.

B6: MX1055 (other)
chain 1: EIVMTQSPAILSVSPGERATLSCRASQSVAINLAWYQQKPGQAPRLLIYAASSRATGIPGRFSGSGSETNFTLTISSLQSGDFAVYYCQQYITWPPSYTFGQGTKLEIKGGSSGDTVMTQSPLSLPVTPGEPASISCRSSQSLLNSNGYNYLDWYVQKPGQSPQLLIYLGSNRASGVPDRFSGSGSGTDFTLKISRVEAEDVGVYYCMQPLQTPLFTFGPGTKVEIKGGGGSGGSGSGGGGSASGSGQVTLRESGPALVKPTQTLTLTCTFSGFSLSTRGVCVSWIRQPPGKALEWLAFIDWDDDKYYNTSLKTRLTISKDTSKNQVVLTMTNVHPVDTATYYCARISSHHGSSWCTTFDYWGQGALVTVSAGGSSGEVQLVESGGALIQPGGSLRLSCAASGIIVSANYMSWVRQAPGKGLEWVSVIYSGGSTFYADSVKGRFTISRDNSKNTLYLEMNSLRAEDTAVYYCARDAPILGVSDWGQGTLVTVSSASGGSGDKTHTCPPCPAPELLGGPSVFLFPPKPKDTLMISRTPEVTCVVVDVSHEDPEVKFNWYVDGVEVHNAKTKPREEQYNSYVVSVLTVLHQDWLNGKEYKCKVSNKALPAPIEKTISKAKGQPREPQVYTLPPCRDELTKNQVSLWCLVKGFYPSDIAVEWESNGQPENNYKTTPPVLDSDGSFFKKLTVDKSRWQQGNVFSCSVLHEALHSHYTQKSLSLSPG
chain 2: DTVMTQSPLSLPVTPGEPASISCRSSQSLLNSNGYNYLDWYVQKPGQSPQLLIYLGSNRASGVPDRFSGSGSGTDFTLKISRVEAEDVGVYYCMQPLQTPLFTFGPGTKVEIKGGSSGQTVVTQEPSFSVSPGGTVTLTCGLSSGSVSTAYFPSWYQQTPGQAPRTLIYGTNTRSSGVPDRFSGSILGNKAALTITGAQADDESDYYCVLYMGRGIVVFGGGTKLTVLGGGGSGGSGSGGGGSASGSGQVQLVESGGGVVQPGRSLRLSCAASGFTLSSYGMHWVRQAPGKGLEWVAVISYDGSNKYYVDSVKGRFTISRDNSKNTLYLQMNSLRAEDTAVYYCRWAYWELLPDYYYGMDVWGQGTTVTVSSGGSSGQVTLRESGPALVKPTQTLTLTCTFSGFSLSTRGVCVSWIRQPPGKALEWLAFIDWDDDKYYNTSLKTRLTISKDTSKNQVVLTMTNVHPVDTATYYCARISSHHGSSWCTTFDYWGQGALVTVSAASGGSGDKTHTCPPCPAPELLGGPSVFLFPPKPKDTLMISRTPEVTCVVVDVSHEDPEVKFNWYVDGVEVHNAKTKPREEQYNSYVVSVLTVLHQDWLNGKEYKCKVSNKALPAPIEKTISKAKGQPREPQVCTLPPSRDELTKNQVSLSCAVKGFYPSDIAVEWESNGQPENNYKTTPPVLDSDGSFFLVSKLTVDKSRWQQGNVFSCSVLHEALHSHYTQKSLSLSPG
In the case of B6, in experiment [1], the “IC50, pseudovirus neutralization” value was 8.39 nM and the “IC80, pseudovirus neutralization” value worked out at 32.7 nM. For the same molecule, in experiment [2], the “IC50, pseudovirus neutralization” value stood at 23.6 nM and the “IC80, pseudovirus neutralization” value was 67.9 nM.
